# Assay results published in PubChem BioAssay AID1903 (Southern Research Specialized Biocontainment Screening …, 2009).
# Protein sequences, listed by entry. Tags and fused reporters are not part of them.
# UniProt P03070, whole entry: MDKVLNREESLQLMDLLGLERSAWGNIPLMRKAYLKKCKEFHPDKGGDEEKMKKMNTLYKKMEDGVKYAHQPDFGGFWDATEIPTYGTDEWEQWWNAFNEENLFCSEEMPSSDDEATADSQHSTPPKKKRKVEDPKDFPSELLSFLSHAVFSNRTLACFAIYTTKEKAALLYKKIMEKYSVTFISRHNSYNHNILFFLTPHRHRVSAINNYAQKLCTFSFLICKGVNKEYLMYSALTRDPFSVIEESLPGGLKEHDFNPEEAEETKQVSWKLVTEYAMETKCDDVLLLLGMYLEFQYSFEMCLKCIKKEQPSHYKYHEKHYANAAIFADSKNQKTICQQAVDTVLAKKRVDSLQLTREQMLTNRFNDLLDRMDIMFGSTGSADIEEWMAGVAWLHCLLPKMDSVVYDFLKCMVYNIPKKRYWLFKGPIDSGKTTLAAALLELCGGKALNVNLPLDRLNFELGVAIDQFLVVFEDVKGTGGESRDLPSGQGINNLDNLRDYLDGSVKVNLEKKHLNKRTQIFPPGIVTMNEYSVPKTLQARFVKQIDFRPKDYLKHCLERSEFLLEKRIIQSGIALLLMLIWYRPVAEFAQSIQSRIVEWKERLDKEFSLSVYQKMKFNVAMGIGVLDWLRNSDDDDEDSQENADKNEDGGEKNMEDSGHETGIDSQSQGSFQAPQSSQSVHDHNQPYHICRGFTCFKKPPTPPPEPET
# The other results are listed elsewhere or left out. Entries with a potency or affinity are not part of this list. Some structures show a salt or complex split into parts, the way the source records it. Activity calls are given as the source filed them. The rule behind the calls is not given here.
# Target: Large T antigen (Simian virus 40) (UniProt P03070)
# Assay: TAg ATPase/helicase activity blockers – biochemical (AID 1903)
# Settings: SV40 large T antigen ATPase/helicase inhibition assay; at 20 µM; active compounds read high
row,Structure (SMILES),inhibition
1,CP(=S)(Nn1cnnc1)Oc1ccccc1 (centres undefined),inactive: 3.58%
2,COc1ccccc1OP(C)(=O)Nc1ccccc1 (centres undefined),inactive: 8.01%
3,CP(=O)(Nc1ccccc1Br)Oc1ccccc1 (centres undefined),inactive: -6.39%
4,CP(=O)(Oc1ccccc1)OC(c1ccccc1)C(F)(F)F (centres undefined),inactive: 3.96%
5,CP(=O)(Nc1ccc(SC(F)(F)F)cc1)Oc1ccc(Cl)cc1 (centres undefined),inactive: 15.9%
6,Cc1cccc(C)c1OP(C)(=O)Nc1ccc(SC(F)(F)F)cc1 (centres undefined),inactive: 6.81%
7,Cc1cc(C)cc(OP(C)(=O)Nc2ccc(SC(F)(F)F)cc2)c1 (centres undefined),inactive: -1.78%
8,CCc1ccc(OP(C)(=O)N2CCN(c3ccc([N+](=O)[O-])cc3)CC2)cc1 (centres undefined),inactive: 15.4%
9,CP(=O)(NC(=O)Nc1ccccc1)Oc1ccccc1 (centres undefined),inactive: 8.83%
10,CCOP(C)(=S)SCC(=O)NC(C)C(=O)O (centres undefined),inactive: 7.34%
11,O=[N+]([O-])c1cc([N+](=O)[O-])c(O)c([N+](=O)[O-])c1.c1ccc(Oc2ccncc2)cc1,inactive: 12.7%
12,CCOC(=O)c1ccc(NP(C)(=O)Oc2ccc(OC)cc2)cc1 (centres undefined),inactive: 17.1%
13,CP(=O)(Nc1ccccn1)Oc1ccc(Cl)cc1 (centres undefined),inactive: 9%
14,CCN(CC)CCCOC(=O)C(O)(c1ccccc1)c1ccccc1,inactive: 14%
15,O=[N+]([O-])c1cc([N+](=O)[O-])c(Nc2cccnc2)c([N+](=O)[O-])c1,inactive: 14.8%
16,Cc1cccc(C)c1OP(C)(N)=O (centres undefined),inactive: 21.4%
17,CC(C)(C)c1ccc(OP(C)(=O)Nc2ccc(SC(F)(F)F)cc2)cc1 (centres undefined),inactive: -1.62%
18,O=[N+]([O-])c1ccc2c(c1)C=Nc1ccccc1O2,inactive: 21.8%
19,CCOC(=O)c1ccc(NP(C)(=O)Oc2ccccc2)cc1 (centres undefined),inactive: -3.27%
20,Cc1ccc(NP(C)(=O)Oc2ccccc2)c(C)c1 (centres undefined),inactive: 17.7%
21,COc1ccccc1OP(C)(=O)Nc1ccc(C)cc1 (centres undefined),inactive: 2.63%
22,COc1ccc(OP(C)(=O)Nc2cccc(F)c2)cc1 (centres undefined),inactive: 2.09%
23,COc1ccccc1OP(C)(=O)Nc1cc(Cl)ccc1C (centres undefined),inactive: 11.9%

row,Structure (SMILES),inhibition
1,Cc1cc(C)cc(OP(C)(N)=O)c1 (centres undefined),inactive: 4.39%
2,O=C(O)c1cccc(Nc2c([N+](=O)[O-])cc([N+](=O)[O-])cc2[N+](=O)[O-])c1,inactive: 3.06%
3,CC1=NCCc2c1[nH]c1ccccc21.O=[N+]([O-])c1cc([N+](=O)[O-])c(O)c([N+](=O)[O-])c1,inactive: 2.43%
4,COc1ccccc1OP(C)(=O)Nc1cccc(Br)c1 (centres undefined),inactive: 7.71%
5,Cc1cc(C)cc(OP(C)(=O)Nc2ccc(C)cc2C)c1 (centres undefined),inactive: 2.46%
6,CCOC(=O)c1ccc(NP(C)(=O)Oc2cc(C)cc(C)c2)cc1 (centres undefined),inactive: 4.64%
7,CP(=O)(Nc1cccc(Br)c1)Oc1ccccc1 (centres undefined),inactive: 6.51%
8,Cc1cc(C)cc(OP(C)(=O)Nc2ccccn2)c1 (centres undefined),inactive: 6.79%
9,Cc1ccc(C)c(NP(C)(=O)Oc2ccccc2)c1 (centres undefined),inactive: 3.29%
10,O=[N+]([O-])c1cc([N+](=O)[O-])c(-n2nnc3ccccc32)c([N+](=O)[O-])c1,inactive: 7.54%
11,O=[N+]([O-])c1cc([N+](=O)[O-])c(-c2cnn(-c3ccccc3)c2)c([N+](=O)[O-])c1,inactive: 13.7%
12,Cc1nc2ccc3ccccc3c2s1.O=[N+]([O-])c1cc([N+](=O)[O-])c(O)c([N+](=O)[O-])c1,inactive: 21.9%
13,CCOC(=O)C(CC)C1=NC(C)(C)Cc2ccccc21.O=[N+]([O-])c1cc([N+](=O)[O-])c(O)c([N+](=O)[O-])c1 (centres undefined),inactive: 8.67%
14,O=[N+]([O-])c1cc([N+](=O)[O-])c(Nc2nnnn2CCO)c([N+](=O)[O-])c1,inactive: 23.8%
15,CC1=C2N=C(C=C3N=C(C(C)=C4[N-][C@@](C)([C@@H]5N=C1[C@](C)(CCC(=O)NC[C@@H](C)OP(=O)([O-])O[C@H]1[C@@H](O)[C@@H](n6cnc7cc(C)c(C)cc76)O[C@@H]1CO)[C@H]5CC(N)=O)[C@@](C)(CC(N)=O)[C@@H]4CCC(N)=O)[C@@](C)(CC(N)=O)[C@@H]3CCC(N)=O)C(C)(C)[C@@H]2CCC(N)=O.[C-]#N.[Co+3],inactive: -3.2%
16,CN1CCCCC1COC(=O)C1(O)c2ccccc2CCc2ccccc21 (centres undefined),inactive: 5.83%
17,COc1ccccc1OP(C)(=O)Nc1c(C)cccc1C (centres undefined),inactive: 9.73%
18,CP(=O)(Nc1ccc(SC(F)(F)F)cc1)Oc1ccccc1 (centres undefined),inactive: 1.33%
19,CCCOc1ccc(NP(C)(=O)Oc2ccc(Cl)cc2)cc1 (centres undefined),inactive: 8.64%
20,COc1ccc(OP(C)(=O)Nc2cccc(Br)c2)cc1 (centres undefined),inactive: 1.6%
21,COc1ccc(NP(C)(=O)Oc2ccccc2OC)cc1 (centres undefined),inactive: 17.3%
22,CN(C)CCOC(=O)C(O)(c1ccccc1)C1CCCCC1 (centres undefined),inactive: 4.64%
23,Cc1cc(-c2cccc3ccccc23)c(C)cn1.O=[N+]([O-])c1cc([N+](=O)[O-])c(O)c([N+](=O)[O-])c1,inactive: 7.33%

row,Structure (SMILES),inhibition
1,O=[N+]([O-])c1cc([N+](=O)[O-])c(NCC2CCS(=O)(=O)C2)c([N+](=O)[O-])c1 (centres undefined),inactive: 0.33%
2,O=[N+]([O-])c1ccc(OP2(=O)COCCO2)cc1 (centres undefined),inactive: 5.94%
3,CP(=O)(Nc1ccc(SC(F)(F)F)cc1)Oc1ccc(F)cc1 (centres undefined),inactive: 5.22%
4,CCOP(C)(=S)SCC(=O)NC(C)(CC)C(=O)O (centres undefined),inactive: 3.33%
5,CP(=O)(Nc1ccc2c(c1)OCCO2)Oc1ccccc1 (centres undefined),inactive: 12.1%
6,Cc1ccccc1NP(C)(=O)Nc1ccccc1C,inactive: 6.06%
7,CC(C)c1ccc(OP(C)(=O)Nc2ccc(SC(F)(F)F)cc2)cc1 (centres undefined),inactive: 11%
8,CP(=O)(Nc1ccccc1F)Oc1ccccc1 (centres undefined),inactive: 5.83%
9,O=C(OCCN1CCN(CCOCc2ccccc2)CC1)C(O)(c1ccccc1)c1ccccc1,inactive: 3.13%
10,O=C(OC1CN2CCC1CC2)c1ccc([N+](=O)[O-])cc1 (centres undefined),inactive: 5.65%
11,COc1ccc2c(c1O)-c1c(O)c(OC)cc3c1[C@H](C2)[N+](C)(C)CC3.O=[N+]([O-])c1cc([N+](=O)[O-])c([O-])c([N+](=O)[O-])c1[O-],inactive: 36.4%
12,COc1ccc(OP(C)(=O)Nc2ccc(SC(F)(F)F)cc2)cc1 (centres undefined),inactive: 1.51%
13,CCOC(=O)c1ccc(NP(C)(=O)Oc2ccc(F)cc2)cc1 (centres undefined),inactive: 13.1%
14,CCN(CC)CCCOC(=O)C(O)(c1ccccc1)C1CCCCC1 (centres undefined),inactive: 1.74%
15,O=[N+]([O-])c1cc([N+](=O)[O-])c(OC2CCCCC2O)c([N+](=O)[O-])c1 (centres undefined),inactive: 10.5%
16,CCCCCOc1ccc(NP(C)(=O)Oc2ccc(Cl)cc2Cl)cc1 (centres undefined),inactive: 9.69%
17,CP(=O)(Nc1ccccc1)Oc1ccc(F)cc1 (centres undefined),inactive: 14.6%
18,Cc1cc(C)cc(OP(C)(=O)Nc2cccc(C(F)(F)F)c2)c1 (centres undefined),inactive: 21%
19,COc1ccc(OP(C)(=O)Nc2ccccc2Br)cc1 (centres undefined),inactive: -2.64%
20,COc1ccccc1OP(C)(=O)Nc1ccc(C)c(C)c1 (centres undefined),inactive: 8.23%
21,Cc1nc2ccc3ccccc3c2o1.O=[N+]([O-])c1cc([N+](=O)[O-])c(O)c([N+](=O)[O-])c1,inactive: 17.4%
22,CP(=O)(OCCOc1ccccc1)OCCOc1ccccc1,inactive: 4.13%
23,CP(=O)(Nc1ccc(Cl)cc1Cl)Oc1ccccc1 (centres undefined),inactive: 6.48%

row,Structure (SMILES),inhibition
1,COc1ccccc1OP(C)(=O)Nc1ccc(Br)cc1 (centres undefined),inactive: 13.5%
2,CN(C)CCOC(=O)C(O)(c1ccccc1)C1CCCC1 (centres undefined),inactive: 4.87%
3,COc1ccc(OP(C)(=O)Nc2ccccn2)cc1 (centres undefined),inactive: 0.77%
4,O=[N+]([O-])c1cc([N+](=O)[O-])c(Nc2ccccn2)c([N+](=O)[O-])c1,inactive: 22.1%
5,Cc1c(NP(C)(=O)Oc2ccc(C(C)C)cc2)c(=O)n(-c2ccccc2)n1C (centres undefined),inactive: 10.3%
6,CCc1ccc(OP(C)(=O)O)cc1,inactive: -6.32%
7,COc1ccccc1OP(C)(=O)Nc1ccc(C)cc1C (centres undefined),inactive: 9.21%
8,CP(=O)(Nc1ccccn1)Oc1ccccc1 (centres undefined),inactive: -0.06%
9,COc1ccc(OP(C)(=O)Nc2ccc(Br)cc2)cc1 (centres undefined),inactive: -0.16%
10,CCN(CC)CC(O)COC(=O)C(O)(c1ccccc1)C1CCCCC1 (centres undefined),inactive: 5.23%
11,CCc1ccc(OP(C)(=O)Nc2cccnc2)cc1 (centres undefined),inactive: 2.34%
12,CP(=O)(Oc1ccccc1)N1CCOC1=O (centres undefined),inactive: 2.63%
13,O=C(OCCCN1CCCC1)C(O)(c1ccccc1)C1CCCCC1 (centres undefined),inactive: 3.54%
14,CP(=O)(Nc1ccc(Cl)cc1)Oc1ccc(F)cc1 (centres undefined),inactive: -1.47%
15,CC(C)(C)c1ccc(OP(C)(=O)O)cc1,inactive: 14.9%
16,COc1ccccc1OP(C)(=O)Nc1ccccc1Br (centres undefined),inactive: 1.03%
17,CN(C)C(=O)c1c([N+](=O)[O-])cc([N+](=O)[O-])cc1[N+](=O)[O-],inactive: 7.16%
18,Nc1ccc2c(ccc3cccnc32)n1.O=[N+]([O-])c1cc([N+](=O)[O-])c(O)c([N+](=O)[O-])c1,inactive: 16.8%
19,CP(=O)(OC12CC3CC(CC(C3)C1)C2)OC12CC3CC(CC(C3)C1)C2,inactive: -1.05%
20,CCOC(=O)c1ccc(NP(C)(=O)Oc2ccc(Cl)cc2)cc1 (centres undefined),inactive: 11.4%
